# Primary screen of a compound library

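Whole-cell growth test on Mycobacterium tuberculosis, read after 3 days in glucose-containing 7H9 medium; the read-out is not stated. Compounds at 500 µM. The record gives no direction; compounds that gave an IC50 in retests scored well above the rest, so higher reads as more growth inhibition. Size under these conditions: about 18,000 compounds, about 1,400 of them at 50% or above in at least one test.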

Results are given as percent effect. The record does not define 0% and 100%; most values in the screen are far below 50% and negative numbers occur (in some assays of this library far below -100). The entries come from a sample that favours strong results.

| # | SMILES | Percent Effect |
|---|---|---|
| 1 | `Cc1n[nH]cc1CNc1cc2c(cc1F)NC(=O)CC2` | 12.44 |
| 2 | `CNCc1csc(C)n1` | 16.66 |
| 3 | `N#Cc1ccc(S(=O)(=O)NCCCN)cc1C(F)(F)F` | 61.79 |
| 4 | `CN(C(=O)CSc1cnn[nH]1)c1ccccc1` | 26.51 |
| 5 | `COc1ccc(C(=O)NC2=NCCS2)c(O)c1` | 72.49 |
| 6 | `CS(=O)(=O)N1CCN(C(=O)c2cc(C3CC3)on2)CC1` | 33.81 |
| 7 | `CC1CCCN(CCC(=O)Nc2sccc2C(N)=O)C1` (stereo not given) | 15 |
| 8 | `Cc1ccccc1C(C)NC(=O)Cn1ccccc1=O` (stereo not given) | 6.864 |
| 9 | `O=C(CCn1cccn1)N1CCCCCC1` | 51.58 |
| 10 | `Cc1ccc(NCc2cc[nH]n2)cc1S(C)(=O)=O` | -6.791 |
| 11 | `Cc1cc(N2CCCCC2)nc(CO)n1` | 14.69 |
| 12 | `Cc1nnc(CN2CCN(CC(O)C(C)(C)C)CC2)o1` (stereo not given) | 8.189 |
| 13 | `NC1(CO)CCc2ccccc21` (stereo not given) | 13.74 |
| 14 | `COc1cc2c(cc1OC)CN(C(=O)C(C)C)CC2` | 37.07 |
| 15 | `Cc1ccc(C(N)CF)cc1` (stereo not given) | 7.678 |
| 16 | `O=C(CN(CC(=O)NC1CC1)C1CC1)NC1CC1` | -1.456 |
| 17 | `Cn1c(CN)nc2ccc(F)cc21` | 25.34 |
| 18 | `CC(C)CNc1cc(CN(C)C)ccn1` | 7.806 |
| 19 | `Cn1ccnc1C(NC(=O)c1cnc(O)cn1)C1CC1` (stereo not given) | 4.36 |
| 20 | `COCCNC(=O)C(C)Cn1cc(Br)cn1` (stereo not given) | 49.14 |
| 21 | `CCOC(=O)c1cnc(SC2CCOC2=O)nc1N` (stereo not given) | -3.292 |
| 22 | `O=C(CSc1cnn[nH]1)Nc1ccc(F)cc1F` | 29.45 |
| 23 | `O=C(CNC(=O)N1CCC1)Nc1ccc(F)c(F)c1` | 30.41 |
| 24 | `CNS(=O)(=O)c1ccc(C(=O)Nc2ccccc2C)o1` | 19.56 |
| 25 | `CNC(=O)C1CCCN(C(=O)c2cncc(Br)c2)C1` (stereo not given) | 18.59 |
| 26 | `CC[C@H](CO)NCc1ccccc1` | -4.665 |
| 27 | `CC1(C#N)CCNC1` (stereo not given) | 3.126 |
| 28 | `CC1CCN(CCNC(=O)Nc2ncnn2C)CC1` | -22.71 |
| 29 | `O=C(Cn1cc(Br)cn1)Nc1ccc2c(c1)OCCO2` | 53.5 |
| 30 | `CCCn1cc(C)c(N)n1` | 13.52 |
| 31 | `NCC(CO)c1ccccc1Cl` (stereo not given) | 15.33 |
| 32 | `O=C(NC1CC1)c1cccc(CNc2ccccn2)c1` | 62.27 |
| 33 | `COCCNCC(=O)OC` | -5.137 |
| 34 | `Cc1cc(C(=O)N2CCOCC2)c2ccc(F)cc2n1` | -7.365 |
| 35 | `Clc1ccc(N2CCN(Cc3ncc[nH]3)CC2)nc1` | 65.88 |
| 36 | `Cc1cccc(CNC(C)(CO)CO)c1C` | 3.347 |
| 37 | `CN(C)C(=O)c1cccc(S(C)(=O)=O)c1` | 16.14 |
| 38 | `Cc1ccnc(NC(=O)C2=NN(C)C(=O)CC2)c1` | -7.699 |
| 39 | `CCc1ccc(CN2CC(N3CCOCC3)C2)o1` | 86.67 |
| 40 | `NC(=O)CCSCc1ccn(-c2ccccc2)n1` | 71.02 |
| 41 | `CCc1noc(CNC)n1` | -3.25 |
| 42 | `NS(=O)(=O)c1ccc2c(c1)N(Cc1ccon1)CC2` | -2.872 |
| 43 | `CN(C)C(CNC(=O)c1ncccc1O)c1ccco1` (stereo not given) | 6.02 |
| 44 | `O=C(Cn1cnnn1)N(CC(F)(F)F)C1CCC1` | 2.449 |
| 45 | `CCCOC1CCCNC1` (stereo not given) | 5.938 |
| 46 | `CC(C)(C)C(=O)Nc1nc(-c2ccncc2)n[nH]1` | -0.4811 |
| 47 | `COCC(=O)Nc1ccc(-n2cccn2)nc1` | 20.19 |
| 48 | `CCC1CCCCN1C(=O)c1csc(NC(C)=O)n1` (stereo not given) | 24.2 |
| 49 | `O=C(c1c(F)cccc1Cl)N1CCNCC1` | 6.897 |
| 50 | `N#CCc1ccc2c(c1)CCO2` | 5.442 |
| 51 | `COc1cccc(CNCC2(C)COC2)n1` | 33.83 |
| 52 | `CCn1cc(NC(=O)NCCCNC(C)=O)cn1` | -6.332 |
| 53 | `CS(=O)(=O)C1CSCCN1C(=O)c1cccc(Cl)c1` (stereo not given) | -9.263 |
| 54 | `CC(C)(C)CC(=O)NCCNC(=O)c1ccco1` | 19.81 |
| 55 | `Cc1ccc(CCC(C)NC(CO)CO)cc1` (stereo not given) | 39.46 |
| 56 | `COc1cccc(OCCN)c1` | 9.725 |
| 57 | `COc1ccc(OC)c(-n2c(CCN)n[nH]c2=O)c1` | -7.193 |
| 58 | `NCCNS(=O)(=O)c1ccc(F)cc1C(F)(F)F` | -10.88 |
| 59 | `CN(C)CCNC(=O)c1ccc(CN)cc1` | 1.446 |
| 60 | `CN1CCOCC1C(=O)NCCCNc1ccccc1` (stereo not given) | 23.35 |
| 61 | `Cc1cc(N2CCN(CCO)CC2)nc2ccccc12` | -7.567 |
| 62 | `O=C(Cc1ccsc1)N1CCC(c2cc[nH]n2)CC1` | 20.4 |
| 63 | `CN(c1ccc(C(=O)N2CCCCC2)cc1)S(C)(=O)=O` | 5.592 |
| 64 | `COC(=O)C1CCN(S(=O)(=O)Cc2ccccc2)CC1` | 0.1494 |
| 65 | `Cc1ccccc1NC(=O)Cn1cccn1` | -10.15 |
| 66 | `N#Cc1cccc(S(=O)(=O)NCCc2ccccn2)c1` | 30.28 |
| 67 | `O=C(NCc1cc(Br)cs1)N1CCC(O)CC1` | 34.76 |
| 68 | `CCS(=O)(=O)N(C)CCCNc1cccc(C)n1` | 35.35 |
| 69 | `CCCc1nc(C(=O)N2CC(c3ccncc3)C2)cs1` | 75.62 |

For reference, 5 entries once more:

SMILES	Percent Effect
Cc1ccccc1C(C)NC(=O)Cn1ccccc1=O (stereo not given)	6.864
CN1CCOCC1C(=O)NCCCNc1ccccc1 (stereo not given)	23.35
O=C(NCc1cc(Br)cs1)N1CCC(O)CC1	34.76
CNCc1csc(C)n1	16.66
CC1CCCN(CCC(=O)Nc2sccc2C(N)=O)C1 (stereo not given)	15

From ChEMBL document CHEMBL3988442, “University of Dundee, Small-Polar-MMV Screening Library” (2021).